Anti-infective test results gathered from many reports (values: NIAID ChemDB through PubChem).

Shared fields: growth or infection tests; agent: HIV-2; method: syncytia; measure: EC50

Conditions beyond the fields shown may differ between rows. ECn is the concentration giving n% inhibition of infection, replication or growth.

compound | cells | strain | value
Cc1cn([C@H]2C[C@H](N=[N+]=[N-])[C@@H](CN3C(=O)c4ccc(C(=O)OCC56CC7CC(CC(C7)C5)C6)cc4C3=O)O2)c(=O)[nH]c1=O | CEM | ROD | 0.11 µM
CCCCCCCCCCCCCCCCOCCOP(=O)(O)OC[C@H]1O[C@@H](n2cc(C)c(=O)[nH]c2=O)C[C@@H]1N=[N+]=[N-] | CEM + CEM TK- | ROD | >7 µM
Cc1cn([C@@H]2O[C@H](CO[Si](C(C)(C)C)(C(C)(C)C)C(C)(C)C)C3(OS(=O)(=O)C=C3N)[C@H]2O[Si](C)(C)C(C)(C)C)c(=O)n(C)c1=O | MT-4 | ROD | >30 µM
Cc1cn([C@H]2CC(SSC(Cl)(Cl)Cl)[C@@H](CO)O2)c(=O)[nH]c1=O | CEM | ROD | <27.5 µM
COC(=O)C(C)(C)NP(=O)(OC[C@@H]1C=C[C@H](n2cc(C)c(=O)[nH]c2=O)O1)Oc1ccccc1 | CEM + CEM/O | ROD Laboratory clade B | 0.5 µM
COC(=O)c1cc(O)c(O)c(O)c1 | CEM | ROD | 1.7 µg/mL
Cc1cn([C@@H]2O[C@H](CO[Si](C)(C)C(C)(C)C)[C@@]3(OS(=O)(=O)C=C3N)[C@H]2O[Si](C)(C)C(C)(C)C)c(=O)[nH]c1=O | CEM | ROD | >10 µM
Nc1ncnc2c1ncn2CCOCP(=O)(O)O | CEM | ROD | 5.7 µg/mL
Cc1cn([C@@H]2O[C@H](CO[Si](C)(C)C(C)(C)C)C3(OS(=O)(=O)C=C3N)[C@H]2O[Si](C)(C)C(C)(C)C)c(=O)n(CCOC(=O)[C@@H](N)C(C)C)c1=O | CEM | ROD | >10 µM
Cc1cn([C@H]2C=C[C@@H](COP3(=O)OCc4cccc(CCC(=O)OCc5ccccc5)c4O3)O2)c(=O)[nH]c1=O | CEM + CEM/O | LAV-2 | 1 µM
Cc1cn([C@@H]2O[C@H](CO[Si](c3ccccc3)(c3ccccc3)C(C)(C)C)C3(OS(=O)(=O)C=C3N)[C@H]2O[Si](C)(C)C(C)(C)C)c(=O)n(C)c1=O | CEM | ROD | >60 µM
Cc1cn([C@@H]2O[C@H](CO[Si](C)(C)C(C)(C)C)C3(OS(=O)(=O)C=C3N)[C@H]2O[Si](C)(C)C(C)(C)C)c(=O)n(C)c1=O | CEM | ROD | >200 µM
Cc1cn([C@@H]2O[C@H](CO[Si](C)(C)C(C)(C)C)C3(OS(=O)(=O)C=C3N)[C@H]2O[Si](C)(C)C(C)(C)C)c(=O)n(C)c1=O | MT-4 | ROD | >20 µM
CCCCCCCCCCCCCCCCOP(=O)(O)OC[C@H]1O[C@@H](n2cc(C)c(=O)[nH]c2=O)C[C@@H]1N=[N+]=[N-] | CEM + CEM TK- | ROD | >40 µM
CC(=O)ON1COC[C@H]2O[C@@H](n3cc(C)c(=O)[nH]c3=O)C[C@@H]21 | CEM | ROD | >50 µg/mL
Cc1cn([C@@H]2O[C@H](CO[Si](c3ccccc3)(c3ccccc3)C(C)(C)C)C3(OS(=O)(=O)C=C3N)[C@H]2O[Si](c2ccccc2)(c2ccccc2)C(C)(C)C)c(=O)[nH]c1=O | CEM | ROD | >150 µM
COC(=O)[C@H](C)NP(=O)(OC[C@@H]1C=C[C@H](n2cc(C)c(=O)[nH]c2=O)O1)Oc1ccccc1 | CEM + CEM/O | ROD | 0.102 µM
Cc1ccc(S(=O)(=O)OC[C@H]2O[C@@H](n3cc(C)c(=O)n(C)c3=O)[C@H](O[Si](C)(C)C(C)(C)C)C23OS(=O)(=O)C=C3N)cc1 | CEM | ROD | >6.2 µM
O=c1[nH]cnc2c1ncn2[C@H]1CC[C@@H](CO)O1 | CEM | ROD | 2.52 µg/mL
Cc1c(N)nc(N)nc1OCCOCP(=O)(O)O | CEM | ROD | 0.09 µg/mL
Nc1nc(N)c(Cl)c(OCCOCP(=O)(O)O)n1 | CEM | ROD | 1.3 µg/mL
Cc1cn([C@@H]2O[C@H](CO[Si](C)(C)C(C)(C)C)C3(OC(=O)N(C)C3=N)[C@H]2O[Si](C)(C)C(C)(C)C)c(=O)n(C)c1=O | CEM | ROD | >35 µM
Cc1cn([C@H]2C[C@H](N=[N+]=[N-])[C@@H](COC(=O)c3cccnc3)O2)c(=O)[nH]c1=O | CEM | ROD | 0.1 µg/mL
Nc1ccn([C@H]2CC[C@@H](CO)O2)c(=O)n1 | CEM | ROD | 0.013 µM
Cc1cccc2c1OP(=O)(OC[C@@H]1C=C[C@H](n3cc(C)c(=O)[nH]c3=O)O1)OC2 | CEM + CEM/O | ROD | 0.19 µM
COC(=O)CCc1cccc2c1OP(=O)(OC[C@@H]1C=C[C@H](n3cc(C)c(=O)[nH]c3=O)O1)OC2 | CEM + CEM/O | LAV-2 | 0.25 µM
Cc1cn([C@H]2C=C[C@@H](COP3(=O)OCc4c(ccc5ccccc45)O3)O2)c(=O)[nH]c1=O | CEM + CEM TK- | ROD | 0.3 µM
Nc1ccn([C@H]2CC[C@@H](CO)O2)c(=O)n1 | CEM | ROD | 0.04 µg/mL
C[C@H](Cn1cnc2c(N)ncnc21)OCP(=O)(O)O | CEM | ROD | 0.61 µg/mL
Cc1cn([C@H]2C=C[C@@H](COP3(=O)OCc4cccc(CCC(=O)OC(C)(C)C)c4O3)O2)c(=O)[nH]c1=O | CEM + CEM TK- | LAV-2 | 1.14 µM
C[C@H](Cn1cnc2c(N)ncnc21)OCP(=O)(O)O | CEM | ROD | 1.4 µg/mL
Cc1cc(=O)oc2cc(O)c(O)cc12 | CEM | ROD | 2.5 µg/mL
N#Cc1c(N)nc(N)nc1OCCOCP(=O)(O)O | CEM | ROD | 1.3 µg/mL
CCCCCCCCCCCCCCOCCOP(=O)(O)OC[C@H]1O[C@@H](n2cc(C)c(=O)[nH]c2=O)C[C@@H]1N=[N+]=[N-] | CEM + CEM TK- | ROD | >7 µM
Cc1cn([C@H]2C[C@H](N=[N+]=[N-])[C@@H](CN3C(=O)c4c(Cl)c(Cl)c(Cl)c(Cl)c4C3=O)O2)c(=O)[nH]c1=O | CEM + CEM TK- | ROD | >180 µM
CCOC(=O)c1cc(O)c(O)c(O)c1 | CEM | ROD | 2.7 µg/mL
Cc1cn([C@H]2C[C@H](N=[N+]=[N-])[C@@H](CN3C(=O)c4cccc([N+](=O)[O-])c4C3=O)O2)c(=O)[nH]c1=O | CEM + CEM TK- | ROD | >200 µM
CC(=O)NC1=CS(=O)(=O)OC12[C@@H](COCc1ccccc1)O[C@@H](n1cc(C)c(=O)[nH]c1=O)[C@@H]2OC(C)=O | MT-4 | ROD | >160 µM
Cc1cn([C@H]2C[C@H](N=[N+]=[N-])[C@@H](CN3C(=O)c4ccccc4C3=O)O2)c(=O)[nH]c1=O | CEM + CEM TK- | ROD | >230 µM
Cc1cn([C@@H]2O[C@H](COCc3ccccc3)C3(OS(=O)(=O)C=C3NC(=O)c3ccccc3)[C@H]2OC(=O)c2ccccc2)c(=O)[nH]c1=O | MT-4 | ROD | >40 µM
Cc1cn([C@H]2C[C@H](F)[C@@H]([C@@H](C)O)O2)c(=O)[nH]c1=O | CEM | ROD | 27 ± 18 µg/mL
Cc1cn([C@H]2C[C@H](N=[N+]=[N-])[C@@H](CN3C(=O)c4c(F)c(F)c(F)c(F)c4C3=O)O2)c(=O)[nH]c1=O | CEM | ROD | 3.9 µM

Repeating the first 5 entries:

| compound | cells | strain | value |
|---|---|---|---|
| Cc1cn([C@H]2C[C@H](N=[N+]=[N-])[C@@H](CN3C(=O)c4ccc(C(=O)OCC56CC7CC(CC(C7)C5)C6)cc4C3=O)O2)c(=O)[nH]c1=O | CEM | ROD | 0.11 µM |
| CCCCCCCCCCCCCCCCOCCOP(=O)(O)OC[C@H]1O[C@@H](n2cc(C)c(=O)[nH]c2=O)C[C@@H]1N=[N+]=[N-] | CEM + CEM TK- | ROD | >7 µM |
| Cc1cn([C@@H]2O[C@H](CO[Si](C(C)(C)C)(C(C)(C)C)C(C)(C)C)C3(OS(=O)(=O)C=C3N)[C@H]2O[Si](C)(C)C(C)(C)C)c(=O)n(C)c1=O | MT-4 | ROD | >30 µM |
| Cc1cn([C@H]2CC(SSC(Cl)(Cl)Cl)[C@@H](CO)O2)c(=O)[nH]c1=O | CEM | ROD | <27.5 µM |
| COC(=O)C(C)(C)NP(=O)(OC[C@@H]1C=C[C@H](n2cc(C)c(=O)[nH]c2=O)O1)Oc1ccccc1 | CEM + CEM/O | ROD Laboratory clade B | 0.5 µM |